The text below walks through data of patent US20060099220A1, “Antibodies against and methods for producing vaccines for respiratory syncytial virus” (MEDIMMUNE, INC., priority 2004, published 2006).

The data set concerns MEDI-524 Mab. In words: Isothermal titration calorimetry (ITC) of F peptides with MEDI-524 Mab. The data set is classed as binding. The conditions noted are these: 25 mM His; for ΔHbinding: Mab, at 18° C., pH 6.07. The method, then:
To evaluate the binding properties of the wild-type peptide (SEQ ID NO.28) to Numax™/MEDI-524 by using the ITC technique. The MEDI-524 Mab was titrated with SEQ ID NO.28 in the basis buffer 25 mM His, pH 6 at 10° C. SEQ ID NO.28: (MW=2732.14, no W, Y, or C). A working solution of 55 μM was prepared by diluting 30 μL of a 5 mg/mL peptide solution with 970 μL of 25 mM His, pH 6 buffer to be used for the ITC titrations. A 1.15 μM (0.1706 mg/ml) working solution of MEDI-524 was used for the experiments (MW 148400, A280=1.47).
For this set of experiments, […] (1.16 μM-148.4 KDa) of MEDI-524 Mab and 0.088 mg/mL (1.88 μM-46.3 KDa) of MEDI-524 Fab, both in 25 mM His, pH 6.07 were used. On the other hand, 250 μL of 1 mg/mL of the different peptides dissolved in H2O, were provided by ABC. The peptides were then diluted into the appropriate volume of buffer to give a final concentration of 50 μM. The ITC experiments were run at 18° C. with the macromolecule (Mab or Fab) in the cell, by doing ˜26 injections of 10 μL of peptides, spaced 360 sec with constant stirring. The data fitting was accomplished by subtracting the average value of the few last injections as the buffer and unspecific heat of dilution contributions. […] A note apart is the fact that the observed binding capacity (N) increases with the length of the peptide, indicating possibly an extra conformational factor in the binding event. The entropic contribution: For the peptides SEQ ID NOs.24 and 26, the entropic factor seems to be similar; the extra amino acids at the end of the N-terminal seems not to affect greatly the binding parameters. On the other hand, the elongation at the C-terminal seems to decrease slightly the binding enthalpy, the binding constant, as well as the entropic factor. […] The binding constant seems to be smaller (weaker) for both 30-mer peptides respect to the 26-mer.
In general terms: ITC needs no label: the signal is the heat of the interaction.

Marks after values point to notes of the source that are not given here. Where no end group is shown, it is not given here.

Regarding “NSELLSLIHDMPITNDQKKLMSNNVQIVRQ-NH2 (C-terminus assumed) [SEQ ID NO: 25]”, the ΔHbinding is -10.0 kcal/mol. “NSELLSLINDMPITNDQKKLMSNN-NH2 (NSELLSLINDMPITNDQKKLMSNNNH; C-terminal amide; Derived from respiratory syncytial virus sequence) [SEQ ID NO.28]”: for the setting “pH 6 at 10° C.”, the binding enthalpy stood at 4.8 ± 0.1 kcal/M, the binding site detected is 1 and the stoichiometry turned out to be 4. For the substance “STYMLTNSELLSLIHDMPITNDQKKLMSNN-NH2 (C-terminus assumed) [SEQ ID NO: 26]”, the ΔHbinding is −12.6* Kcal/Mol.
